# Measured values taken from publication PMC9135449.
# The exact form of at least one protein or probe is not confirmed. The comparison behind a weaker result is the experiment's own reference, which may not be listed here. Where a protein sequence is shown, tags need not be part of it. At least one verdict rests on a figure or table, not on a statement of the authors.
# Target: T1, HP1043 (UniProt O25684)
# T1 sequence (looked up): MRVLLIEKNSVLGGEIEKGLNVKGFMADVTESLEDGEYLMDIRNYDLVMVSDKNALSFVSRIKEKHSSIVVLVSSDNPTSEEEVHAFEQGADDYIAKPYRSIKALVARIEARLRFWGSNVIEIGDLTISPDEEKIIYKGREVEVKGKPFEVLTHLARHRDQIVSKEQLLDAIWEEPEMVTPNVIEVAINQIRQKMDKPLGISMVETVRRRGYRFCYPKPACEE
# Assay: EMSA
# Details: 10 mM Tris-HCl pH 7.5, 40 mM KCl, 100 ug/ml BSA, 1 mM DTT, 5% glycerol, 25 ul, room temperature 30 min, 6% native PAGE in 45 mM Tris/45 mM orthoboric acid, recombinant protein, residues 1-223, protein details: N-terminal His6, label: none (ethidium bromide stain), probe letters rebuilt from the primers and the genome
sequence,measurement,setting,value
GCCAAAACGCCTAAAGCCACAATAACCTTTTTCATCGTTTGTCTCCTCTACTTATCAAAATGATCTTAAAATGATACAATTACAAGTTTAAGTTTTGCTTAAAAAATGAAGTGAAAATAAGAGAAATAAATATGATTTTATACATTCATATCCCCTTTTGTGAAAATAAATGCGGTTATTGCGCTTTCAA (double strand) [Php1227 190-bp promoter probe],binding result,"4 uM HP1043 + oxcarbazepine 0.05-1 mM, no appreciable reduction of complex",binds
same,binding result,4 uM HP1043 + temoporfin 0.05-1 mM (inhibition even at 0.05 mM),binds more weakly
same,binding result,"4 uM HP1043 + tetraethylenepentamine 0.05-1 mM, faint shifted band remains",binds more weakly
same,binding result,"4 uM HP1043 + trientine 0.05-1 mM, faint shifted band remains",binds more weakly
